Molecules are shown by their SMILES. The list shows a part of the results, in another mix than the full data. The source made the active and inactive calls.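 How the source made its calls: active means inhibition above the screen-wide mean plus 3 SD (cut at about 35% in these data); inactive means the rest.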

The chains behind the UniProt entries cited, without tags or fusion partners.
UniProt P05866, whole entry: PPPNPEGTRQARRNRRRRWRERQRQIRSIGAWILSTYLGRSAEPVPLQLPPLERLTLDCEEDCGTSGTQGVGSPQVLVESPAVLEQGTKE

In PubChem BioAssay AID704 (The Scripps Research Institute Molecular Screening Center, 2007) one finds inhibition data, which are given here for 30 molecules.

The target of this assay is Protein Rev (Human immunodeficiency virus type 1 group M subtype B (isolate WMJ22)) (UniProt P05866). As to the kind of experiment: disruptors of Rev peptide-RRE RNA complex – biochemical, FRET, protein-RNA interaction, primary screen (AID 704). The following applies: Rev peptide-RRE RNA binding, at 8 µM, hits give high values. In outline:
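assay system = Cy5-tagged RRE RNA duplex with fluorescein-tagged Rev peptide | incubation = 5 + 15 min at 25 °C | also added = labelled Rev peptide | measure = % inhibition of FRET ratio versus controls | benchmarks = DMSO wells as 0% and neomycin B wells as 100% inhibition | measured by = FRET fluorescence readout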
With `CC(C)(C)c1ccc(OP(C)(=O)O)cc1`, the inhibition was inactive: 4.66%.
Consider `CP(=O)(Nc1ccc(Cl)cc1)Oc1ccc(F)cc1` (stereo not given), for which the inhibition was inactive: 1%.
Consider `COc1ccccc1OP(C)(=O)Nc1c(C)n(C)n(-c2ccccc2)c1=O` (stereo not given), for which the inhibition was inactive: 3.38%.
As for `CP(=O)(Oc1ccccc1)N1CCOC1=O` (stereo not given), the inhibition is inactive: -2.24%.
For `CCN(CC)CC(O)COC(=O)C(O)(c1ccccc1)C1CCCCC1` (stereo not given) the value was inactive: -5.53%; for `CP(=O)(OC12CC3CC(CC(C3)C1)C2)OC12CC3CC(CC(C3)C1)C2`, inactive: -1.28%.
As for `Cc1nc2ccc3ccccc3c2o1.O=[N+]([O-])c1cc([N+](=O)[O-])c(O)c([N+](=O)[O-])c1`, the inhibition was inactive: 11%.
In the case of `COc1ccccc1OP(C)(=O)Nc1ccc(C)c(C)c1` (stereo not given), the inhibition was inactive: 0.89%.
For `COc1ccccc1OP(C)(=O)Nc1ccc(C)cc1C` (stereo not given), the inhibition is inactive: -5.7%.
On to `CP(=O)(Nc1ccccn1)Oc1ccccc1` (stereo not given), for which the inhibition is inactive: 8.92%.
For the molecule `CCc1ccc(OP(C)(=O)O)cc1`, the inhibition was inactive: 3.28%.
Turning to `Cc1c(NP(C)(=O)Oc2ccc(C(C)C)cc2)c(=O)n(-c2ccccc2)n1C` (stereo not given), the inhibition is inactive: 0.24%.
On to `COc1ccc(OP(C)(=O)Nc2ccccn2)cc1` (stereo not given), for which the inhibition was inactive: 5%.
`CN(C)CCOC(=O)C(O)(c1ccccc1)C1CCCC1` (stereo not given): the inhibition is inactive: 0.28%.
For `CP(=O)(Nc1ccccc1F)Oc1ccccc1` (stereo not given), the inhibition is inactive: 0.76%.
In the case of `CP(=O)(Nc1ccccc1)Oc1ccc(F)cc1` (stereo not given), the inhibition was inactive: 7.26%.
In the case of `CCN(CC)CCCOC(=O)C(O)(c1ccccc1)C1CCCCC1` (stereo not given) it was inactive: -3.75%; in that of `CN(C)CCOC(=O)C(O)(c1ccccc1)C1CCCCC1` (stereo not given), inactive: -5.45%.
In the case of `COc1ccc(OP(C)(=O)Nc2cccc(Br)c2)cc1` (stereo not given) it was inactive: 5.4%; in that of `CP(=O)(Nc1ccc2c(c1)OCCO2)Oc1ccccc1` (stereo not given), inactive: 3.35%; in that of `CCOP(C)(=S)SCC(=O)NC(C)(CC)C(=O)O` (stereo not given), inactive: 0.86%.
Regarding `Cc1nc2ccc3ccccc3c2s1.O=[N+]([O-])c1cc([N+](=O)[O-])c(O)c([N+](=O)[O-])c1`, the inhibition was inactive: 8.76%.
For `COc1ccccc1OP(C)(=O)Nc1c(C)cccc1C` (stereo not given) the value was inactive: -1.73%.
In the case of `Cc1ccc(C)c(NP(C)(=O)Oc2ccccc2)c1` (stereo not given) it was inactive: -2.85%; in that of `Cc1cc(C)cc(OP(C)(=O)Nc2ccccn2)c1` (stereo not given), inactive: 3.56%; in that of `Cc1cc(C)cc(OP(C)(=O)Nc2ccc(C)cc2C)c1` (stereo not given), inactive: 0.96%.
In the case of `COc1ccc(OP(C)(=O)Nc2cccc(F)c2)cc1` (stereo not given) it was inactive: 1.79%; in that of `CP(=S)(Nn1cnnc1)Oc1ccccc1` (stereo not given), inactive: 3.49%.
For `CP(=O)(Nc1ccccn1)Oc1ccc(Cl)cc1` (stereo not given), the inhibition is inactive: -0.57%.
In the case of `CP(=O)(NC(=O)Nc1ccccc1)Oc1ccccc1` (stereo not given), the inhibition is inactive: 3.25%.

Broadly, the inhibition is the drop in the measured response relative to a control, in per cent.
